{"source": "paper PMC7142922", "biological_target": "T1, TyrR (Escherichia coli DH5alpha) (UniProt P07604)", "T1 sequence (looked up)": "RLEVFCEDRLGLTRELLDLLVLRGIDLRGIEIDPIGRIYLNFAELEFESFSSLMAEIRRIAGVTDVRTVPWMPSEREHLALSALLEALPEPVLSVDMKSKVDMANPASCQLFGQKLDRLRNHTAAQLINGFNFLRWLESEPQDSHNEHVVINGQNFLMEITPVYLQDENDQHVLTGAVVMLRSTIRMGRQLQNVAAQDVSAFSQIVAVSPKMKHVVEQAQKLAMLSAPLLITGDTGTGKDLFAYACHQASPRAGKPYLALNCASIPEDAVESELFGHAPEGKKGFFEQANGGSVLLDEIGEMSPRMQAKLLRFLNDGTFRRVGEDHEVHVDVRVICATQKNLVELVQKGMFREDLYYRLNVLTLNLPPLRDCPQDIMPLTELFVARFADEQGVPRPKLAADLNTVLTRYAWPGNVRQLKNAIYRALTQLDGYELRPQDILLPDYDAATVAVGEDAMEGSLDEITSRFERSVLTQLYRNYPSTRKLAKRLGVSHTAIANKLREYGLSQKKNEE", "assay": "EMSA", "conditions": "14 nM TyrR, 0.1 mM phenylalanine, 0.1 mM ATP, 3 mM Mg acetate, TyrR EMSA: 50 mM Tris-HCl pH 7.8, 50 mM NaCl, 0.1 mM EDTA, 0.1 mM DTT, 25 ug/mL BSA, 0.1 mM Phe, ~15 nM DNA, 37 C 30 min, recombinant protein, residues 2-513, protein details: N-terminal His6, probe letters rebuilt from the primers and the genome", "note": "Tags and fusion partners may be left off the protein sequences shown."}
{"sequence": "GAATTCATAAAACCTCGTGTATGGTGCGCTGTTTATTCATGCCGCGCTTCTTTTGAACGATGCAGTAGTGCGTGTGTAAGTTTGCAATTCCGCCTTTTGTATTGATTTATTTACAGTGAAGTTTTATTAAATATCACTATCACTCTTTTGTCTTGGTAAGAATAATGGTATGTGACTGCGAATGCACCTGCTTTGTGCAGGGGTGATGACGAGTTGCGTAAAAAGAAAGCACTTGTAAACCCTTTTAGCATTACTCACTTTATTTTGCATAGCATGTGATGTGCGGAGAAATCTTAGCAGTGAGCAGACCAATAAATAGAATATTCAGAACGGTGTTATTTTATTGACATCGTCAGCGGGGGAGGCGTTTAATTTATATTCGGATGTCGTAAAGCTTAA (double strand) [wt aroP-usp intergenic fragment (403 bp)]", "values": [{"measurement": "binding result", "result": "binds"}]}
